pEC50, pIC50: −log10 of the molar value.
Tests used:
SARS-COV-2 Mpro = SARS-COV-2 Mpro (Severe acute respiratory syndrome coronavirus 2, UniProt P0DTD1); assay: In vitro inhibitory activity against Mpro protease of novel coronavirus (fluorescence substrate assay); details: 25 nM Mpro protein, 25 μM substrate
Protocol: • Tris: Sigma; • EDTA: Sigma; • NaCl: Sigma; • 384 well Plate: Perkin Elmer; • Dimethyl sulfoxide (DMSO): Sigma; • Substrate (Dabcyl-KTSAVLQSGFRKM-(Edans)): GenScript; • SARS-COV-2 Mpro: WuXi AppTec; • GC376: TargetMol.
The compounds were dissolved in DMSO and diluted in a 3-fold gradient using Echo655 according to the concentration required to be measured, with 10 concentration points and duplicate wells for each concentration, and added to a 384-well plate. […] . Simultaneously, a background well containing both the substrate and the compound but no Mpro protein was detected as control.
1) Inhibition rate was calculated using the formula below:
*HPE: a control with 100% inhibition, containing 25 nM Mpro protein+25 μM substrate+1 μM GC376; ZPE: a control without inhibition, containing 25 nM Mpro protein+25 μM substrate, no compound; Compound: a well with the test compound, containing 25 nM Mpro protein+25 μM substrate+Compound; BG: a background control well, containing 25 μM substrate+Compound, no Mpro protein.
2) The inhibition rate data (inhibition rate %) of the compounds were analyzed by nonlinear fitting of log(agonist) vs. response—Variable slope using a GraphPad Prism software, to obtain IC50 values of the compounds, with the experimental results shown in Table 1.

HCoV OC43 = assay: In vitro anti-coronavirus activity using a cytopathic model (CPE, CellTiter Glo); details: HCoV OC43 100 TCID50/well, MRC5 cells, 5 days

SMILES: CC(C)(C)[C@H](NC(=O)C(F)(F)F)C(=O)N1CC2C(CCC23CC3)C1C(=O)N[C@@H](C[C@@H]1CCNC1=O)C(=O)C(=O)NC1CCCC1 (some centres unmarked)
- pIC50 (SARS-COV-2 Mpro): 7.82
- pEC50 (HCoV OC43): 6.39

From patent publication US20240287043A1, “KETOAMIDE DERIVATIVE AND APPLICATION THEREOF” (GUANGDONG RAYNOVENT BIOTECH CO., LTD., priority 2021, published 2024)
